The test concerns the target T1, recombinant human H4 histamine receptor (Homo sapiens, UniProt Q9H3N8).
T1 construct: expressed in transfected cells; host or cells: CHO cells (membranes)
Nature of the test: Histamine H4 receptor radioligand binding. Conditions: [3H]Histamine 8.2 nM, human rCHO-K1 cell membranes; up to 30 μM.

Amino acid sequences for entries named in this document (tags omitted). A change or cut given only in a name is not applied to a line headed by its entry.
UniProt Q9H3N8: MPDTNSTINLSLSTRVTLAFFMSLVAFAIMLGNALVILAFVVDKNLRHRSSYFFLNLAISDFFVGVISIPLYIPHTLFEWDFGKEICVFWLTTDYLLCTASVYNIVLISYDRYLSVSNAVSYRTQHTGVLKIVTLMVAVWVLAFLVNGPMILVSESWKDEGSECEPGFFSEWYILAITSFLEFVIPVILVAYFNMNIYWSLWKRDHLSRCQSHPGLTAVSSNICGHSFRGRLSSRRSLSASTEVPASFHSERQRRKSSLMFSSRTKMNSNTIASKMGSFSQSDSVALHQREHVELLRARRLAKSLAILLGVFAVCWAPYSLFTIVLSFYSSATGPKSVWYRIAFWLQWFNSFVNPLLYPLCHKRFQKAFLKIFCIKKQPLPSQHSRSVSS

Broadly, the Ki is a measure of affinity in units of concentration, obtained from inhibition or displacement. On to mPEG9-N-promethazine, for which the Ki is > 30 µM.
